Pooled drug test results. Numbers come from NIAID ChemDB, via PubChem.

Common to all: whole-cell or culture tests

Blank or dashed fields: not listed here.

| SMILES | organism | strain | changes | cells | method | setting | read-out | tested at | value |
|---|---|---|---|---|---|---|---|---|---|
| CC(C)=CCN1Cc2cc(Cl)cc3[nH]c(=S)n(c23)C[C@@H]1C | HIV-1 | HXB2 |  | HT4 + HT4 LacZ-1 | plaque count |  | EC50 |  | 0.11 µM |
| Cn1c2ccccc2c2c1cc(C#N)c(=O)n2-c1ccc([N+](=O)[O-])cc1 | HIV-1 | NNRTI-resistant | RT-K103N Y181C | HeLa | luciferase |  | fold resistance |  | 1.2 |
| CC(C)=CCN1c2cc(Cl)cc3[nH]c(=S)n(c23)C[C@@H]1C | HIV-1 |  | RT-D67N K70R T215Y K219Q K103N | MT-4 |  |  | EC95 |  | 0.8 µM |
| CC(=O)N1CCC(C(=O)N(CCCN2CCC(Cc3ccc(C(N)=O)cc3)CC2)c2ccc(C)c(Cl)c2)CC1 | HIV-1 | R5 subtype B_1 recombinant |  | U87 (CD4+ CCR5+) + U87 | luciferase |  | EC50 |  | 0.01 µM |
| CC(C)(C)NC(=O)[C@@H]1C[C@@H]2CCCC[C@@H]2CN1C[C@@H](O)[C@H](Cc1ccccc1)NC(=O)[C@H](CC(N)=O)NC(=O)c1ccc2ccccc2n1 | HIV-1 | NL4-3 | PR-L10R M46I L63P V82T | MT-4 | p24 |  | EC95 |  | 0.025 µM |
| Cc1cn([C@H]2C[C@H](N=[N+]=[N-])[C@@H](CO)O2)c(=O)[nH]c1=O | HIV-2 | LAV-2 |  | U-937 | virus yield |  | inhibition | 100 µM | 99.9% |
| Cc1ccnc2c1NC(=O)c1cccnc1N2C1CC1 | HIV-1 | AZT-resistant (RT M41L T215Y K219Q) RTMN | RT-M41L T215Y K219Q | MAGI | β-galactosidase |  | EC50 |  | 0.035 µM |
| c1cc(CN2CCCNCCNCCCNCC2)ccc1CN1CCCNCCNCCCNCC1 | HIV-1 | CM1 CLADE C R5 |  | PBMC | p24 |  | inhibition | 0.1 µM | 8% |
| O=C1N(Cc2ccc(CO)cc2)[C@H](Cc2ccccc2)[C@H](O)[C@@H](O)[C@@H](Cc2ccccc2)N1Cc1ccc(CO)cc1 | HIV-1 | NL4-3 | PR-V82T | MT-4 | p24 |  | EC95 |  | 0.1 µM |
| C[C@H](Cn1cnc2c(N)ncnc21)OCP(=O)(O)O | HIV-1 | Recombinant | RT-M41L V118I M184V | HeLa | luciferase |  | EC50 |  | 0.5555 µM |
| CC(C)c1nc(CN(C)C(=O)N[C@H](C(=O)N[C@@H](Cc2ccccc2)C[C@H](O)[C@H](Cc2ccccc2)NC(=O)OCc2cncs2)C(C)C)cs1 | HIV-1 | NL4-3-P28 (PR M46I I84V) | PR-M46I I84V | MT-4 | p24 |  | EC90 |  | 0.9 µM |
| N#Cc1cc2[nH]c3ccccc3c2n(-c2ccc([N+](=O)[O-])cc2)c1=O | HIV-1 | NNRTI-resistant | RT-Y181C | HeLa | luciferase |  | EC50 |  | 0.45 µM |
| O=C1N(Cc2ccc(CO)cc2)[C@H](Cc2ccccc2)[C@H](O)[C@@H](O)[C@@H](Cc2ccccc2)N1Cc1ccc(CO)cc1 | HIV-1 | A012D POST AZT |  | PBMC | p24 |  | inhibition | 0.25 µM | 90% |
| CCc1c(C(=O)c2cc(C)cc(C)c2)n(CC2CC=CC2)c(=O)[nH]c1=O | HIV-2 | CDC310342 |  | PBMC | cytopathic effect / XTT | clinical isolate | EC50 |  | 0.003 µM |
| C#C[C@]1(CO)O[C@@H](n2cnc3c(N)nc(F)nc32)CC1O | HIV-2 | ROD9 | Q151M | MAGIC-5A | β-galactosidase / absorbance |  | EC50 |  | 0.00038 µM |
| O=C(O)P(=O)(O)O | HIV-1 | IIIB |  | PBL | RT activity | 28 d | inhibition | 32 µM | 68% |
| Cc1cn([C@H]2C[C@H](F)[C@@H](CO)O2)c(=O)[nH]c1=O | HIV-2 | 1814 |  | PBMC | ELISA |  | EC50 |  | 0.004 µM |

Again, the opening 2 rows:

CC(C)=CCN1Cc2cc(Cl)cc3[nH]c(=S)n(c23)C[C@@H]1C ; organism: HIV-1 ; strain: HXB2 ; cells: HT4 + HT4 LacZ-1 ; method: plaque count ; read-out: EC50 ; value: 0.11 µM
Cn1c2ccccc2c2c1cc(C#N)c(=O)n2-c1ccc([N+](=O)[O-])cc1 ; organism: HIV-1 ; strain: NNRTI-resistant ; changes: RT-K103N Y181C ; cells: HeLa ; method: luciferase ; read-out: fold resistance ; value: 1.2

Inhibition is in % at the dose shown (toxicity tests: loss of growth or viability). Rows are shuffled and stem from different studies. ECn: concentration that inhibits the pathogen or its effect by n%. Fold resistance: result on the changed form divided by that on wild type.